Results of unrelated studies side by side (data: NIAID ChemDB).

All rows: cytotoxicity tests; cell line: HepG2.2.15; endpoint: CC50

Rows are shuffled and stem from different studies. CCn: concentration that lowers growth or viability of the cells by n%. An empty or dashed field is not shown.

compound | method | result
Nc1ccn([C@H]2CC[C@@H](CO)O2)c(=O)n1 | - | 168 µM
O=C(/C=C/c1ccc(O)c(O)c1)[Se]c1ccccc1 | MTT | >100 µM
CC(=O)Oc1ccc(-c2cc(=O)c3c(OC(C)=O)c(-c4cc(-c5cc(=O)c6c(OC(C)=O)cc(OC(C)=O)cc6o5)ccc4OC(C)=O)c(OC(C)=O)cc3o2)cc1 | - | 636 µM
O=C(/C=C/C=C/c1ccc(Br)cc1)[Se]c1ccccc1 | MTT | >100 µM
O=C(/C=C/c1ccc(O)c(O)c1)O[C@H]1[C@@H](OC(=O)/C=C/c2ccc(O)c(O)c2)C[C@](O)(C(=O)O)C[C@@H]1O | MTT | >1805 µM
O=C(O)/C=C/c1ccc(O)c(O)c1 | MTT | >4300 µM
CO[C@H]1O[C@@H](n2ccc(=O)[nH]c2=O)C[C@@H]1N=[N+]=[N-] | - | 338 µM
COc1cc(C2Oc3cc(O)cc(O)c3C(=O)C2OC2O[C@H](CO)[C@@H](O)[C@H](O)[C@H]2O)ccc1O | MTT | >2580 µM
O=c1cc(-c2ccc(O)c(-c3c(O)cc4oc(-c5ccc(O)cc5)cc(=O)c4c3O)c2)oc2cc(O)cc(O)c12 | - | >36 µM
Nc1nc(=O)n([C@H]2CC[C@@H](CO)O2)cc1Cl | - | 396 µM
COc1cc2ccc(=O)oc2cc1OC | MTT | 2890 µM
Nc1ncnc2c1ncn2[C@H]1C[C@H](O)[C@@H](COP([O-])(=S)O[C@H]2C[C@H](n3ccc(=O)[nH]c3=O)O[C@@H]2CO)O1 | - | >300 µM
O=C1CCc2ccccc2[Se]1 | MTT | >100 µM
O=C(/C=C/c1ccc(O)c(O)c1)O[C@@H]1[C@@H](OC(=O)/C=C/c2ccc(O)c(O)c2)C[C@@](O)(C(=O)O)C[C@@H]1O | MTT | >1558 µM
CO[C@@H]1[C@H](OP(O)(=S)OC[C@H]2O[C@@H](n3cnc4c(N)ncnc43)C[C@@H]2O)[C@@H](CO)O[C@H]1n1ccc(=O)[nH]c1=O | - | >1000 µM
[N-]=[N+]=N[C@H]1C[C@H](n2cc(Cl)c(=O)[nH]c2=O)O[C@@H]1CO | - | 332 µM
Nc1nc2c(ncn2CCC(CO)CO)c(=O)[nH]1 | - | 89 µM
CC[C@H]1OC(O[C@@H]2[C@@H]3[C@](C)(CC[C@H]2C(C)C)[C@H](O)CC[C@]3(C)O)[C@H](O)[C@@H](O)[C@@H]1O | MTT | 1670 µM
COc1cc(/C=C/C(=O)[Se]c2ccccc2)ccc1O | MTT | >100 µM
COC(C)(C)c1cc2c(c(O)c1O)[C@@]1(C)CCCC(C)(C)C1=C[C@@H]2CC(C)=O | sulforhodamine | 60 µg/mL
O=C(/C=C/c1ccc(O)c(O)c1)O[C@H]1C[C@@](O)(C(=O)O)C[C@H](O)[C@@H]1O | MTT | >1840 µM
Cc1cn([C@@H]2O[C@H](CO)[C@@H](O)[C@@H]2F)c(=O)[nH]c1=O | - | 205 µM
COc1cc(C=O)cc(OC)c1O | MTT | 1500 µM
Nc1nc(N)c2ncn([C@H]3CC[C@@H](CO)O3)c2n1 | - | 230 µM
O=C(C=Cc1ccc(O)c(O)c1)O[C@@H]1C[C@](O)(C(=O)O)C[C@@H](O)[C@H]1O | MTT | >1380 µM
Cc1cn([C@H]2C[C@H](F)[C@@H](CO)O2)c(=O)[nH]c1=O | - | 361 µM
O=c1ccc2ccccc2[se]1 | MTT | >100 µM
CO[C@@H]1O[C@H](COC(=O)/C=C/c2ccc(O)c(O)c2)[C@@H](O)[C@H](O)[C@H]1O | MTT | >1060 µM
O=c1[nH]c(=O)n([C@H]2C[C@H](F)[C@@H](CO)O2)cc1Cl | - | 362 µM
CO[C@@H]1C[C@H]2C(C)(C)CCC[C@]2(C)C2=C1C(O)=C(C(C)COC(C)=O)C(=O)C2=O | sulforhodamine | 30 µg/mL